Measured values from several laboratories, pooled; numbers as filed in NIAID ChemDB.

Shared fields: whole-cell or culture tests; species: Candida albicans; endpoint: MIC90

Blank or dashed fields: not listed here. MIC50, MIC90 and the like: level of inhibition, or share of isolates inhibited. Rows are shuffled and stem from different studies.

SMILES	strain or isolate	read by	setting	result
Clc1ccccc1COc1ccc(C(c2nccc3ccccc23)n2ccnc2)cc1.O=[N+]([O-])O	16 strains			≥256 µg/mL
CC[C@@H]([C@H](C)O)n1ncn(-c2ccc(N3CCN(c4ccc(OC[C@@H]5CO[C@@](Cn6cncn6)(c6ccc(F)cc6F)C5)cc4)CC3)cc2)c1=O	13 isolates fluconazole-resistant			>16 µg/mL
C[C@@H](c1ncncc1F)[C@](O)(Cn1cncn1)c1ccc(F)cc1F	Isolate M27-T-micro		48 h	0.78 µg/mL
C=CCSS(=O)CC=C	Clinical Isolate 3055	broth dilution		3.13 µg/mL
C[C@H]1[C@H](O)[C@@H](C)/C=C/C=C/C=C/C=C/C=C/C=C/C=C/[C@H](O[C@@H]2O[C@H](C)[C@@H](O)[C@H](N)[C@@H]2O)C[C@@H]2O[C@](O)(C[C@@H](O)C[C@@H](O)CC[C@H](O)[C@@H](O)C[C@@H](O)CC(=O)O[C@H]1C)C[C@H](O)[C@H]2C(=O)O	58 strains			1 µg/mL
CC(=O)N1CCN(c2ccc(OC[C@H]3CO[C@](Cn4ccnc4)(c4ccc(Cl)cc4Cl)O3)cc2)CC1	16 strains			4 µg/mL
C[C@H]1[C@H](O)[C@@H](C)/C=C/C=C/C=C/C=C/C=C/C=C/C=C/[C@H](O[C@@H]2O[C@H](C)[C@@H](O)[C@H](N)[C@@H]2O)C[C@@H]2O[C@](O)(C[C@@H](O)C[C@@H](O)CC[C@H](O)[C@@H](O)C[C@@H](O)CC(=O)O[C@H]1C)C[C@H](O)[C@H]2C(=O)O	10 isolates azole-resistant			0.2 µg/mL
Fc1ccc(COc2ccc(C(c3ccc4ccccc4c3)n3ccnc3)cc2)c(F)c1.O=[N+]([O-])O	16 strains			≥256 µg/mL
Clc1ccc(COC(Cn2ccnc2)c2ccc(Cl)cc2Cl)c(Cl)c1	16 strains			1 µg/mL
Clc1ccccc1COc1ccc(C(c2ccc(-c3ccccc3)cc2)n2ccnc2)cc1.O=[N+]([O-])O	17 strains			≥256 µg/mL
C=CCc1ccc(O)c(OC)c1	3043	turbidity		500 µg/mL
Fc1ccc(COc2ccc(C(c3nccc4ccccc34)n3ccnc3)cc2)cc1	16 strains			≥256 µg/mL
CCC(C)CC(C)CCCCCCCCC(=O)N[C@H]1C[C@@H](O)[C@H](NCCN)NC(=O)[C@@H]2[C@@H](O)CCN2C(=O)[C@H]([C@H](O)CCN)NC(=O)[C@H]([C@H](O)[C@@H](O)c2ccc(O)cc2)NC(=O)[C@@H]2C[C@@H](O)CN2C(=O)[C@H]([C@@H](C)O)NC1=O	50 isolates			0.4 µg/mL
Fc1ccccc1COc1ccc(C(c2nccc3ccccc23)n2ccnc2)cc1	16 strains			≥256 µg/mL
CCC(C)n1ncn(-c2ccc(N3CCN(c4ccc(OC[C@H]5CO[C@](Cn6cncn6)(c6ccc(Cl)cc6Cl)O5)cc4)CC3)cc2)c1=O	13 strains (fluconazole-resistant)			>8 µg/mL

2 of the rows above, restated:

Clc1ccc(COC(Cn2ccnc2)c2ccc(Cl)cc2Cl)c(Cl)c1 ; strain or isolate: 16 strains ; result: 1 µg/mL
Fc1ccccc1COc1ccc(C(c2nccc3ccccc23)n2ccnc2)cc1 ; strain or isolate: 16 strains ; result: ≥256 µg/mL